Pooled drug test results. Numbers come from NIAID ChemDB, via PubChem.

Shared fields: tests in culture; agent: Mycobacterium tuberculosis

a–b is a range or a potency band. Rows are shuffled and stem from different studies. MIC bound: limit read from a one-dose screen. Percent inhibition refers to the dose given; in toxicity tests it is the harm to the cells. ECn is the concentration giving n% inhibition of infection, replication or growth. Blank or dashed fields: not listed here.

compound	dose	setting	read-out	cell line	method	strain or isolate	mutations	value
CCn1c2ccc(N)cc2c2c(N)c(-n3cccc3)ccc21	-	-	MIC	VERO	BACTEC	H37Rv	-	6.25 µg/mL
O=c1oc2ccc(F)cc2c(=S)n1-c1ccccc1	-	21 d	MIC	-	-	My 331/88	-	4 µM
C=C(C)[C@@H]1CC[C@]2(CO)CC[C@]3(C)[C@H](CC[C@@H]4[C@@]5(C)CC[C@H](O)C(C)(C)[C@@H]5CC[C@]43C)[C@@H]12	-	-	MIC	-	-	H37Rv	-	32 µM
CCCCCCCCCCCCOS(=O)(=O)O	-	-	MIC	-	-	H37Rv	-	25 µg/mL
COc1cc(O)c(C(=O)/C=C/c2cc(OC)c(OC)c(OC)c2)c(O)c1	12.5 µg/mL	-	inhibition	-	-	H37Rv	-	0%
CCCCCCCCCCCNCCN[C@H]1C[C@@H]1c1ccccc1	-	-	MIC	-	-	-	-	50 µM
O=C(c1ccccc1)c1cc(O)c(O)c(O)c1	-	-	MIC	-	-	H37Rv	-	>100 µg/mL
NC(=O)c1cnccn1	-	-	MIC	-	-	DHMH6577 niacin-positive	-	>2048 µg/mL
COc1ccc(NC=O)c([N+](=O)[O-])c1	-	-	MIC	-	-	H37Rv	-	>100 µg/mL
CCOC(=O)NNC(=O)c1ccccc1	-	-	MIC	-	-	-	-	>200 µg/mL
O=c1oc2ccc(F)cc2c(=S)n1-c1ccc(Cl)c(Cl)c1	-	21 d	MIC	-	-	My 331/88	-	1 µM
COc1ccc(CNCCNCCc2ccccc2F)cc1OC	-	-	MIC	-	-	-	-	25 µM
Cc1ccc(-n2c(=O)oc3ccc(C)cc3c2=S)cc1	-	21 d	MIC	-	-	My 331/88	-	1 µM
NNC(=O)CCC(=O)NN	-	-	MIC	-	-	-	-	10 µg/mL
C/C(=C\CN(C(C)C)C(C)C)CCC[C@H](C)CCC[C@H](C)CCCC(C)C	-	-	MIC	-	-	H37Rv	-	64 µg/mL
O=C(NNc1cccc(Cl)c1)C(O)C(O)C(O)C(O)CO	12.5 µg/mL	-	inhibition	-	BACTEC	H37Rv	-	-19%
CC(C)=CC(=O)NNC(=O)C=C(C)C	-	-	MIC	-	-	-	-	>200 µg/mL
CNc1cccc2c1C(=O)c1ccccc1C2=O	-	-	MIC	-	-	H37Rv	-	100 µg/mL
Cc1ccc2oc(=O)n(-c3ccc(Cl)cc3)c(=S)c2c1	-	21 d	MIC	-	-	My 331/88	-	0.5 µM
O=C(NNC(=O)c1cc(Cl)ccc1Cl)c1cc(Cl)ccc1Cl	-	-	MIC	-	-	-	-	>200 µg/mL
O=C(Nc1ccc(Cl)cc1)Nc1nnc2nc(C(C(=O)/C=C/c3ccccc3)c3nc4nnc(NC(=O)Nc5ccc(Cl)cc5)n4[nH]c3=O)c(=O)[nH]n12	12.5 µg/mL	-	inhibition	-	BACTEC	H37Rv	-	0%
C=CCN(CCNC/C=C(\C)CC=C(C)C)C1CCCC1	-	-	MIC	-	-	-	-	12.5 µM
C/C(=N\NC(=O)c1ccccc1)C(=O)O	-	-	MIC	-	-	-	-	1 µg/mL
NNC(=O)c1ccncc1	-	-	MIC	-	-	H37Rv	-	0.05 µg/mL
CCOC(=O)C1=NN(c2ccccc2)C(=O)C1N=Nc1ccc(NS(=O)(=O)c2nccs2)cc1	-	-	MIC bound	-	BACTEC	H37Rv	-	>12.8 µg/mL
COc1cc2c(cc1OC)C(C)/C(=N/O)C2=O	-	-	MIC	-	-	H37Rv	-	>100 µg/mL
c1ccc(C2OCC(C3OC(c4ccccc4)OC4COC(c5ccccc5)OC43)O2)cc1	12.5 µg/mL	-	inhibition	-	BACTEC	H37Rv	-	2%
CC(C)(O)[C@H]1CC[C@]2(C)[C@H]3CC[C@@H]4[C@@]5(C)CCCC(C)(C)[C@@H]5[C@@H](O)C[C@@]4(C)[C@]3(C)CC[C@@H]12	-	-	MIC	-	-	H37Rv	-	8 µM
COc1ccc(C2Oc3cc(F)ccc3C(=O)C2OC(C)=O)cc1	12.5 µg/mL	-	inhibition	-	-	H37Rv	-	50%
O=C1NN=CC1c1ccccc1	-	-	MIC	-	-	-	-	>200 µg/mL
O=S(=O)(NCCNS(=O)(=O)c1ccccc1)c1ccccc1	-	-	MIC	-	-	H37Rv	-	100 µg/mL
C=C(C)[C@@H]1CC[C@]2(C(=O)O)CC[C@]3(C)[C@H](CC[C@@H]4[C@@]5(C)CC[C@H](O)C(C)(C)[C@@H]5CC[C@]43C)[C@@H]12	-	-	MIC	-	-	H37Rv	-	32 µM
CCN(CC)c1ccc(N=C2C=CC(=O)c3ncccc32)c(C)c1	12.5 µg/mL	-	inhibition	-	BACTEC	H37Rv	-	100%
C/C=C1\C(=O)O[C@]23C=C[C@@H]4C(C(=O)OC)=CO[C@H](O[C@@H]12)[C@@H]43	-	-	MBC	-	MTT	MDR4 clinical isolate	-	3.9 µg/mL
O=C(N/N=C/c1ccc(Cl)cc1)c1ccccc1	-	-	MIC	-	-	-	-	10 µg/mL
CO[C@@H]1C/C=C\C=C\C[C@H](C)[C@@H](O)C[C@@H](O)[C@H](C)[C@H](O)CC(=O)O[C@H]([C@H](C)[C@H](O)/C=C(\C)CC/C=C/C=C/CC(O)CC(C)CCC(=O)O)C[C@H](O)CCC1	-	-	MIC	-	resazurin / absorbance	HUG.MI.1020	katG mutant isoniazid resistant	2.3 µg/mL
CC[C@@H](CO)NCCN[C@@H](CC)CO	-	-	MIC	-	-	H37Rv	-	3.8 µg/mL
CCN(CC)CCC(=O)OC1/C(C)=C/C(C)C(=O)CC(C(C)CC2CCC(O)C(OC)C2)OC(=O)C2CCCCN2C(=O)C(=O)[C@@]2(O)OC(CCC2C)CC(OC)\C(C)=C/C=C/C=C/C(C)CC(C)C(=O)C1OC	12.5 µg/mL	-	inhibition	-	BACTEC	H37Rv	-	-1%
Cl.NC(=Nc1ccccc1)c1ccc([N+](=O)[O-])cc1O	-	-	MIC	-	-	H37Rv	-	>100 µg/mL
CC(C)(C)CC(C)(C)NCCNCc1ccc(C(F)(F)F)cc1	-	-	MIC	-	-	-	-	37.5 µM
CC1(C)C(=O)CC[C@]23C[C@]24CC[C@]2(C)[C@@H](C(C)(C)CCC=O)CC[C@@]2(C)C4CCC13	-	-	MIC	-	-	H37Rv	-	>128 µg/mL
CC(C)=CCC/C(C)=C/CNCCNC12CC3CC(CC(C3)C1)C2	-	-	MIC	-	-	-	-	12.5 µM
CNC(=O)OCC1=C(COC(=O)NC)C2OC1C(C(=O)OC)=C2c1ccc(Cl)cc1	12.5 µg/mL	-	inhibition	-	BACTEC	H37Rv	-	-1%
O=C(/C=C/c1ccccc1)c1ccc(I)cc1O	-	-	EC50	-	-	H37Rv	-	>12.5 µg/mL
N[C@@H]1CN(c2c(F)cc3c(=O)c(C(=O)O)cn([C@@H]4C[C@@H]4F)c3c2Cl)CC12CC2	-	-	MIC	-	resazurin	Clinical strain	Gyrase Asp94Asn/Ala90Val	0.625 µg/mL
Nc1nc(N)nc(Nc2cccc(O)c2)n1	-	-	MIC	-	-	H37Rv	-	>100 µg/mL
S=c1oc2ccc(Br)cc2c(=S)n1-c1ccccc1	-	21 d	MIC	-	-	My 331/88	-	2 µM
O=C(NNC(=O)C(Cl)Cl)c1ccccc1	-	-	MIC	-	-	-	-	>200 µg/mL
CC(C)c1oc(=O)cc2c1[C@@H](O)[C@H]1OC(=O)[C@@]3(C)[C@@H](O)[C@H]4O[C@H]4[C@@]2(C)[C@@H]13	-	-	MIC bound	-	BACTEC	H37Rv	-	>12.5 µg/mL
COC(=O)c1cccc(-c2ccccc2N)c1	-	-	MIC	-	-	H37Rv	-	50 µg/mL
C=C(C)[C@H]1CCC2C(=CC[C@@]3(C)C(C(C)CC/C=C(\C)C(=O)O)CC[C@]23C)[C@]1(C)CCC(=O)O	-	-	MIC	-	BACTEC	H37Rv	-	≥12.5 µg/mL
Cc1cc(C)c(Cl)c(S(N)(=O)=O)c1	-	-	MIC	-	-	H37Rv	-	>100 µg/mL
O=C(Nc1ccccc1)OCCN=C1c2ccccc2CCc2ccccc21	-	-	MIC bound	-	BACTEC	H37Rv	-	>12.5 µg/mL
O=C(N/N=C/c1ccccc1)c1ccccc1	-	-	MIC	-	-	-	-	1 µg/mL
C=C(CO)[C@@H]1CC[C@@]2(C)[C@H](O)CC=C(C)[C@@H]2[C@H]1O	-	-	MIC	-	-	H37Rv	-	>128 µg/mL
Nc1cccc(C(=O)/C=C/c2ccccc2I)c1	-	-	EC50	-	-	H37Rv	-	<12.5 µg/mL
NNC(=O)c1ccncc1	-	-	MIC	-	resazurin	RifR	-	50–100 µg/mL
CCC(C)c1cnc(CC(C)C)c(=O)n1O	128 µg/mL	-	inhibition	-	BACTEC	H37Rv	-	100%
NCC[C@H](O)C(=O)N[C@@H]1C[C@H](N)[C@@H](O[C@H]2O[C@H](CN)[C@@H](O)[C@H](O)[C@H]2O)[C@H](O)[C@H]1O[C@H]1O[C@H](CO)[C@@H](O)[C@H](N)[C@H]1O	-	-	MIC	-	-	TN2229 (N2)	-	>256 µg/mL
Cc1ccc(OC(=O)c2c(C)cc(Br)cc2C)cc1	-	-	MIC	-	-	H37Rv	-	>100 µg/mL
O=c1oc2ccc(F)cc2c(=S)n1-c1ccc(F)cc1	-	21 d	MIC	-	-	My 331/88	-	2 µM
CO[C@H]1/C=C/O[C@@]2(C)Oc3c(C)c(O)c4c(O)c(c(/C=N/N5CCN(C6CCCC6)CC5)c(O)c4c3C2=O)NC(=O)/C(C)=C\C=C\[C@H](C)[C@H](O)[C@@H](C)[C@@H](O)[C@@H](C)[C@H](OC(C)=O)[C@@H]1C	-	-	MIC	-	-	H37Rv (rifampicin-resistant)	-	>40 µg/mL
COc1c(C(=O)/C(=N/Nc2cccc(Cl)c2)C(C)=O)c(O)c(OC)c2occc12	12.5 µg/mL	-	inhibition	-	BACTEC	H37Rv	-	-6%
Nc1nccc(Nc2ccc([As](=O)(O)O)c(O)c2)n1	-	-	MIC	-	-	H37Rv	-	>100 µg/mL
COC(=O)Nc1cn2ccc(Sc3ccccc3)cc2n1	12.5 µg/mL	-	inhibition	-	BACTEC	H37Rv	-	0%
O=c1oc2ccc(F)cc2c(=S)n1-c1cccc(Cl)c1	-	21 d	MIC	-	-	My 331/88	-	2 µM
CC(C)c1ccc(CN)cc1.Cl.O	-	-	MIC	-	-	H37Rv	-	500 µg/mL
c1ccc(CNCCNCCC(c2ccccc2)c2ccccc2)cc1	-	-	MIC	-	-	-	-	50 µM
C/C=C(/C)C(=O)OC1CC(C)(C)CC2C3=CCC4C5(C)CC[C@H](OC(C)=O)C(C)(C)C5CC[C@@]4(C)[C@]3(C)CC[C@@]12C(=O)O	-	-	MIC	-	-	H37Rv	-	50 µg/mL
CC1COc2c(N3CCN(C)CC3)c(F)cc3c(=O)c(C(=O)O)cn1c23	-	-	MBC	-	-	001-010 (drug-resistant)	-	1.5 µg/mL
CC(C)CCC[C@@H](C)CCC[C@@H](C)CCCC1(C)OC1CO	-	-	MIC	-	-	H37Rv	-	8 µg/mL
O=C(c1ccccc1)c1oc2ccc(Br)cc2c1-c1cnn(-c2ccccc2)c1	12.5 µg/mL	-	inhibition	-	BACTEC	H37Rv	-	-8%
CN(CCO)c1ccccc1	-	-	MIC	-	-	H37Rv	-	>100 µg/mL
O=C1OC2(c3ccc(O)cc3Oc3cc(O)ccc32)C2C3CCC(O3)C12	12.5 µg/mL	-	inhibition	-	BACTEC	H37Rv	-	8%
COc1ccc(C(=O)O)c([N+](=O)[O-])c1	-	-	MIC	-	-	H37Rv	-	100 µg/mL
CC1=N/C(=C\c2ccco2)C(=O)O1	-	-	MIC bound	-	BACTEC	H37Rv	-	>12.5 µg/mL
CCCCCCCCCCCCCCCCCCNCCNC1CCC1	-	-	MIC	-	-	-	-	50 µM
Cl.N=C(N)c1ccc([N+](=O)[O-])cc1	-	-	MIC	-	-	H37Rv	-	>100 µg/mL
C[C@H](NCCNC1CCCCCCC1)C1CCCCC1	-	-	MIC	-	-	-	-	50 µM
NCCCCCC(=O)O	-	-	MIC	-	-	H37Rv	-	>100 µg/mL
CO[C@H]1/C=C/O[C@@]2(C)Oc3c(C)c(O)c4c(O)c(c(/C=N/N5CCN(C6CCCC6)CC5)c(O)c4c3C2=O)NC(=O)/C(C)=C\C=C\[C@H](C)[C@H](O)[C@@H](C)[C@@H](O)[C@@H](C)[C@H](OC(C)=O)[C@@H]1C	-	-	MIC	-	-	Atencio	-	0.06 µg/mL
COC(=O)C(CO)NC(=O)CNC(=O)OCc1ccccc1	12.8 µg/mL	-	inhibition	-	BACTEC	H37Rv	-	20%
COC(=O)c1ccc(N)cc1C(=O)OC	-	-	MIC	-	-	H37Rv	-	>100 µg/mL
CC(=O)NC1C(Oc2ccccc2)OC(C(O)CO)C1O	12.5 µg/mL	-	inhibition	-	BACTEC	H37Rv	-	-5%
CCOC(=O)CCC(=O)C(CC(=O)OCC)C(=O)OCC	-	-	MIC	-	-	H37Rv	-	100 µg/mL
COC(=O)/C=C/C1(CC(C)C)N=C(c2ccccc2)OC1=O	-	-	MIC bound	-	BACTEC	H37Rv	-	>12.5 µg/mL
Cc1ccc(-c2ccccc2C(=O)O)cc1	-	-	MIC	-	-	H37Rv	-	>100 µg/mL

The first 7 rows once more:

compound	dose	setting	read-out	cell line	method	strain or isolate	mutations	value
CCn1c2ccc(N)cc2c2c(N)c(-n3cccc3)ccc21	-	-	MIC	VERO	BACTEC	H37Rv	-	6.25 µg/mL
O=c1oc2ccc(F)cc2c(=S)n1-c1ccccc1	-	21 d	MIC	-	-	My 331/88	-	4 µM
C=C(C)[C@@H]1CC[C@]2(CO)CC[C@]3(C)[C@H](CC[C@@H]4[C@@]5(C)CC[C@H](O)C(C)(C)[C@@H]5CC[C@]43C)[C@@H]12	-	-	MIC	-	-	H37Rv	-	32 µM
CCCCCCCCCCCCOS(=O)(=O)O	-	-	MIC	-	-	H37Rv	-	25 µg/mL
COc1cc(O)c(C(=O)/C=C/c2cc(OC)c(OC)c(OC)c2)c(O)c1	12.5 µg/mL	-	inhibition	-	-	H37Rv	-	0%
CCCCCCCCCCCNCCN[C@H]1C[C@@H]1c1ccccc1	-	-	MIC	-	-	-	-	50 µM
O=C(c1ccccc1)c1cc(O)c(O)c(O)c1	-	-	MIC	-	-	H37Rv	-	>100 µg/mL